The target of this experiment is human FGFR-5 (full length, GenBank NM-021923 / NP-068742) (human) (UniProt Q8N441). Briefly: cell-based or functional assay.

For “pseudotyped virus of HCV coated with the E1 and E2 proteins of HCV”, the infectivity of ΔG/SEAP/HCV E1E2 to CHO/FGFR-5 (relative SEAP activity) amounted to 6 times.

(Values after patent US20080125362A1, “Method of screening compound preventing cells from infection with Hepatitis C virus (HCV)” (Japan Tobacco Inc., priority 2004, published 2008).)
